Pooled drug test results. Numbers come from NIAID ChemDB, via PubChem.

All rows: tests in culture; agent: HIV-1; endpoint: inhibition

Percent inhibition refers to the dose given; in toxicity tests it is the harm to the cells.

| compound | strain | read by | conditions | tested at | cells | result |
|---|---|---|---|---|---|---|
| CCOc1ccc2nc(NC(=O)NCCc3ccccc3)sc2c1 |  | cytopathic effect / XTT |  | 1 µg/mL | MT-4 | 0% |
| COc1cccc2[nH]cc(C(=O)C(=O)N3CCN(C(=O)c4cccc(NC(=O)OC(C)(C)C)c4)C[C@H]3C)c12 |  | luciferase |  | 10 µM | HeLa + HELA CD4+/CCR5 | 95% |
| C[C@H]1[C@H](O)[C@@H](C)/C=C/C=C/C=C/C=C/C=C/C=C/C=C/[C@H](O[C@@H]2O[C@H](C)[C@@H](O)[C@H](N)[C@@H]2O)C[C@@H]2O[C@](O)(C[C@@H](O)C[C@@H](O)CC[C@H](O)[C@@H](O)C[C@@H](O)CC(=O)O[C@H]1C)C[C@H](O)[C@H]2C(=O)O | 92UG029 CLADE A X4 (SI) | p24 / RT activity |  | 3.1 µM | PBMC | 90% |
| Cc1ccc(-c2ccc3c(c2)C=C(C(=O)Nc2ccc(C[N+](C)(C)C4CCOCC4)cc2)CCC3)cc1 | COT6 CLADE C | p24 |  | 5 µM | PBMC | 100% |
| CCCCCCCCCCCCCCCCOP(=O)(OCCO[C@@H]1O[C@H](CO)[C@@H](O)[C@H](O)[C@@H]1O)OC[C@H]1O[C@@H](n2cc(C)c(=O)[nH]c2=O)C[C@@H]1N=[N+]=[N-] | LAV-Bru | RT activity | 7 d | 1 µM | PBL | 0% |
| O=C(C(=O)N1CCN(C(=O)c2c(S)cccc2Cl)CC1)c1c[nH]c2cccc(Cl)c12 |  | luciferase |  | 10 µM | HeLa + HELA CD4+/CCR5 | 94% |
| N=C1Sc2ccccc2C2=NCCCN12 | 98IN022 | β-galactosidase |  | 1.48 µM | PBMC | 90% |
| O=c1oc2cc(O)c(O)cc2c(O)c1-c1coc2c1c(=O)oc1cc(O)c(O)cc12 | IIIB | MTT |  | 10 µM | MT-4 | 55% |
| CC1(C)[C@@H](O[C@H]2O[C@H](C(=O)O)[C@@H](O)[C@H](O)[C@H]2O[C@@H]2O[C@H](C(=O)O)[C@@H](O)[C@H](O)[C@H]2O)CC[C@]2(C)[C@H]3C(=O)C=C4[C@@H]5C[C@@](C)(C(=O)O)CC[C@]5(C)CC[C@@]4(C)[C@]3(C)CC[C@@H]12 | IIIB | antigen |  | 60 µM | MT-4 | 6% |
| O=C1NC(=S)N[C@@H]1Cc1ccccc1 |  | cytopathic effect / XTT |  | 1 µg/mL | MT-4 | 5% |
| Cc1cn([C@H]2C[C@H](N=[N+]=[N-])[C@@H](COP(=O)(O)OCCO[C@H]3O[C@H](CO)[C@@H](O)[C@H](O)[C@@H]3O)O2)c(=O)[nH]c1=O | LAV-Bru | RT activity | 22 d | 5 µM | CEM | 0% |
| CN1C(=O)[C@@H](Cc2ccccc2)NC1=S |  | cytopathic effect / XTT |  | 10 µg/mL | MT-4 | 24–34% |
| O=C(C(=O)N1CCN(C(=O)c2ccc(Cl)o2)CC1)c1c[nH]c2cccc(F)c12 |  | luciferase |  | 10 µM | HeLa + HELA CD4+/CCR5 | >98% |
| O=C(NCCc1ccccc1)Nc1cnccn1 |  | cytopathic effect / XTT |  | 1 µg/mL | MT-4 | 4% |
| C[C@@H]1CN(C(=O)c2ccc(N)cc2)CCN1C(=O)C(=O)c1c[nH]c2c(F)ccc(F)c12 |  | luciferase |  | 10 µM | HeLa + HELA CD4+/CCR5 | >98% |
| Cc1nnc(NC(=O)NCCc2ccccc2)s1 |  | cytopathic effect / XTT |  | 10 µg/mL | MT-4 | 38% |
| C[C@@H]1CN(C(=O)c2ccccc2)CCN1C(=O)C(=O)c1c[nH]c2ccc(F)cc12 |  | luciferase |  | 10 µM | HeLa + HELA CD4+/CCR5 | 69% |
| N#Cc1csc(NC(=O)NCCc2ccccc2)n1 |  | cytopathic effect / XTT |  | 1 µg/mL | MT-4 | 51–63% |
| CCCCCCCCCCCCCCCCOP(=O)(OC[C@H]1OC(O)[C@@H](O)[C@@H](O)[C@@H]1O)OC[C@H]1O[C@@H](n2cc(C)c(=O)[nH]c2=O)C[C@@H]1N=[N+]=[N-] | LAV-Bru | RT activity | 14 d | 1 µM | U-937 | 0% |
| O=C(C(=O)N1CCN(C(=O)c2ccccc2)CC1)c1c[nH]c2c(F)c(F)c(F)c(F)c12 |  | luciferase |  | 10 µM | HeLa + HELA CD4+/CCR5 | >98% |
| O=C(NCCc1ccccc1)Nc1nc(-c2ccc(Cl)cc2)cs1 |  | cytopathic effect / XTT |  | 10 µg/mL | MT-4 | 0% |

Blank or dashed fields: not listed here. Conditions beyond the fields shown may differ between rows. a–b is a range or a potency band.